Results are given as percent effect.
The controls that fix the scale are not given in the record; negative values are as filed.
This is part of a subset picked to be rich in strong results.
Two or more numbers in one place are separate tests of the same structure; such repeats can differ widely.
A dash means the value is not listed here; it may have been measured.

A: 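Phenotypic screen: M. tuberculosis growth, glucose 7H9 medium, 3 days; the read-out is not stated. Compounds at 50 µM. Direction is inferred from retests: higher values go with more growth inhibition. About 69,000 compounds were tested under these conditions; 1.1% (about 760) showed 50% or more at least once.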
B: 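Whole-cell growth test on Mycobacterium tuberculosis, read after 4 days in a medium based on cholesterol and the lipid DPPC; the read-out is not stated. Concentration: 50 µM. Direction is inferred from retests: higher values go with more growth inhibition. Size under these conditions: about 69,000 compounds, about 370 of them at 50% or above in at least one test.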

SMILES	A	B
N#Cc1nccnc1N1CCC(COCc2ccccc2)C1 (centres undefined)	-	37.28
CN(CCCNC(=O)c1ccccc1F)CC(F)(F)F	-	24.57
O=C(Nc1ccc(F)cc1)NC1(CCO)CCOCC1	4.883	-
O=C(C1CCS(=O)(=O)CC1)N1CCC(Cc2ccc(F)cc2)CC1	-45.36	-
Cc1cc(C(=O)NCC2COCc3c(C)nnn3C2)no1 (centres undefined)	-3.622	-
Cc1cc(NC(=O)C(C)Oc2ccc3c(c2)OCO3)no1 (centres undefined)	16.64	-8.592
Cn1ccc(-c2cc(C(=O)N3CCCCC3)c3ccccn23)n1	11.3	-
Fc1cccc(Cc2cncc(C3CCCN3C3CCOCC3)n2)c1 (centres undefined)	5.995	1.463 & -21.45
COc1ccc(F)c(CN2CCCC3(CCN(C4CCOCC4)C3)C2)c1 (centres undefined)	69.69 & 58.01	-
CN(Cc1cc(F)ccc1C#N)CC(C)(CO)CO	59.1	-
COc1ccc(C(O)CNC(=O)NCc2csc(C)n2)cc1 (centres undefined)	-6.249	-
CN(C)c1cc(C(=O)N2CCN(c3cc(C#N)ccn3)CC2)ccn1	-1.85	0.6828
CC(C1CC1)N(C)Cc1nnc(-c2ccc(Br)s2)o1 (centres undefined)	32.84	44.4 & 43.76
Cc1n[nH]c(C)c1CCNC(=O)Nc1ccc(S(C)(=O)=O)cc1	13.75 & -7.801	5.176
O=C(c1cc2c([nH]c1=O)CCC2)N1CCCC1c1ccccc1 (centres undefined)	-	83.48
CCOc1ccc(NC(=O)NCCS(=O)(=O)CC)cc1C	-26.24	1.74
CC(Nc1nc(-c2ccccc2)nc2c1CCNCC2)c1cccnc1 (centres undefined)	66.7	-
CCc1ncc(CN2CCOC(Cc3cccc(F)c3)C2)cn1 (centres undefined)	42.75	44.17
CCCn1ccnc1CN1CCCC1c1ccccn1 (centres undefined)	12.94 & 111.5	-
Cl.OC1(c2ccc(F)cc2)CCN(Cc2ccccc2N2CCCC2)CC1	52.77	24.63
c1cc2c(cc1CSCc1noc(C3CC3)n1)OCCO2	28.78	18.03 & 31.01
COCCN1CCC(NCc2ccc(Cl)cc2)C1 (centres undefined)	20.83	-3.096
CSc1ccc(C(CN)N2CCc3sccc3C2)cc1 (centres undefined)	-15.45 & 71.78	-
O=C(CCc1ccc(=O)[nH]n1)N1CCCC(COc2ccc(F)cc2)C1 (centres undefined)	4.541 & -5.16	-
COc1ncccc1CNC(=O)c1cccc(C)n1	-4.576	-
CC(C)(C)c1noc(CCC(=O)N2CCNC(=O)C2)n1	-17.42 & 5.529	-
Cc1cc(C)nc(NC2CCC(=O)N(C)C2)n1 (centres undefined)	-	8.302
CCN(CCS(=O)(=O)CC)CC1CCCO1 (centres undefined)	0.2509 & -5.106	2.561
NC(=O)C(NC(=O)c1cc(Cl)c[nH]1)c1ccccc1 (centres undefined)	5.707	-
COc1cc(Cl)cc(CN2CCCC(N3CCCC3)C2)c1OC (centres undefined)	70.79	-
Cc1cccc(OC2CCN(c3ccc(C#N)cn3)CC2)n1	23.41	-
Cc1nc(CN2CCc3nc(N4CCCC4)nc(NC(C)C)c3C2)cs1	58.21 & 55.22	-
Fc1ccc(CN2CCCC(c3nnc(-c4cnccn4)o3)C2)cc1F (centres undefined)	-	18.82
CC(C)N1CCCC(CN(C)c2ccc(Cn3ccnc3)cn2)C1 (centres undefined)	-2.179 & 3.577	4.855 & -2.069
Cl.Cl.[H][C@@]12CN(CCc3ccccc3)C[C@]1([H])C2CN (some centres undefined)	-	-20.15
Cc1ccc2nc(C)cc(C(=O)NCc3csc(N(C)C)n3)c2c1	20.77	-12.26
OC1CCN(c2nc(-c3ccccc3)no2)CC1	-8.685 & -7.539	-1.133
CCN(CC)S(=O)(=O)NCCc1cc(C)ccc1OC	-0.7897	-
CCCn1nccc1C(=O)Nc1nc(C)c(C)s1	50.94 & 5.993	-
Cc1nnsc1C(=O)NCC1CCN(c2ccccn2)CC1	-11.2	-
O=C(Nc1ccncc1)NC1CCN(c2ccccc2OC(F)F)C1 (centres undefined)	32.48 & 15.89	-
CC(Cn1cccn1)NC(=O)Nc1ccccn1 (centres undefined)	-8.15	-19.58
O=C(NCCn1ccnc1)c1ccn(-c2ccccc2F)n1	-27.31	4.353
Cn1cncc1CN1CCCC1c1cncc(Oc2ccc(Cl)cc2)n1 (centres undefined)	5.854	-
Clc1cccc(CNC2CCN(CCc3ccncc3)CC2)c1	-7.1	-8.966
COc1cccc(C(=O)NCC(O)c2cccs2)c1 (centres undefined)	2.619 & 25.96	-
CCOc1cccc(CNc2cncc(-n3cccn3)n2)c1	31.08	26.38
CC(C)Nc1nc(N2CCCC2)nc2c1CN(C)CC2	-0.6525	-
CN(CC1CCN(c2ccccc2)C1)c1ccc(Cn2ccnc2)cn1 (centres undefined)	59.97 & 48.5	67.99 & 49.16
Cc1nc(C)c(C(=O)N2CCCc3c(F)cccc32)o1	-	-4.507
O=S(=O)(NCCNc1cc(-n2cccc2)ncn1)c1cccs1	38.3 & 19.77	25.84
CC(Cn1cccn1)NC(=O)c1cccs1 (centres undefined)	-30.25	-17.56
Cc1cc(C)cc(CN2CCCC2c2noc(C)n2)c1 (centres undefined)	25.54	-
Cc1cc(C)c2nc(C)cc(C(=O)NCc3csc(N(C)C)n3)c2c1	-68.55	-36.31
CC(NC(=O)NCCCO)c1ccc2c(c1)OCCO2 (centres undefined)	4.556	-
CSCC(C)(O)CNc1cccc(F)c1C#N (centres undefined)	-9.115	5.769

Some entries from above, unchanged:

| SMILES | A | B |
|---|---|---|
| `CC(NC(=O)NCCCO)c1ccc2c(c1)OCCO2` (centres undefined) | 4.556 | - |
| `CCN(CC)S(=O)(=O)NCCc1cc(C)ccc1OC` | -0.7897 | - |
| `COc1cc(Cl)cc(CN2CCCC(N3CCCC3)C2)c1OC` (centres undefined) | 70.79 | - |
| `CSCC(C)(O)CNc1cccc(F)c1C#N` (centres undefined) | -9.115 | 5.769 |

Data taken from ChEMBL document CHEMBL3988442, “University of Dundee, Small-Polar-MMV Screening Library” (2021).